Data published in patent US6806265B2, “Non-nucleoside reverse transcriptase inhibitors” (priority 2002, dated 2004).

Assays:
[1] = biological target: HIV-1 RT double mutant K103N/Y181C (Human immunodeficiency virus type 1 group M subtype B, UniProt P03366, K702N/Y780C); conditions: read-out: IC50 K103N/Y181C
[2] = system: HIV-1 double mutant K103N/Y181C; conditions: read-out: EC50 K103N/Y181C
[3] = system: HIV-1 wild type; conditions: read-out: EC50 WT RT
[4] = biological target: HIV-1 wild type reverse transcriptase (Human immunodeficiency virus type 1 group M subtype B, UniProt P03366); conditions: read-out: IC50 WT RT

Work on `CCN1c2ncc(CCOc3ccc(-c4ccc[n+]([O-])c4)cc3C)cc2C(=O)Nc2c(C)ccnc21` yielded an IC50 [1] of less than 50 nM and an EC50 [2] of less than 10 nM.
`CCN1c2ncc(CCOc3ccc(-c4ccc(C(=O)O)c(Cl)c4)cc3)cc2C(=O)N(C)c2cccnc21` gave an IC50 [1] of 50 to 100 nM, an EC50 [3] of 10 to 50 nM and an IC50 ([4]; wild type RT) of less than 50 nM. The EC50 [2] was greater than 50 nM.
`CCOC(=O)c1csc(-c2ccc(OCCc3cnc4c(c3)C(=O)N(C)c3cccnc3N4CC)cc2)n1` was tested, and the IC50 [1] was greater than 100 nM and the IC50 ([4]; wild type RT) was less than 50 nM.
Work on `CCN1c2ncc(CCOc3ccc(-c4ccncc4)cc3C)cc2C(=O)N(C)c2cccnc21` yielded an IC50 [1] of less than 50 nM, an EC50 [3] of less than 10 nM and an IC50 [4] of less than 50 nM. For the same compound, the EC50 [2] was less than 10 nM.
For `CCN1c2ncc(CCOc3ccc(-c4csc(C(=O)O)c4)cc3C)cc2C(=O)N(C)c2cccnc21`, the IC50 [1] was less than 50 nM, the EC50 [3] was less than 10 nM and the IC50 [4] was less than 50 nM. For the same compound, the EC50 [2] was 10 to 50 nM.
For `CCN1c2ncc(CCOc3ccc(-c4ccc(C(=O)O)c[n+]4[O-])cc3C)cc2C(=O)N(C)c2cccnc21`, the IC50 [1] was less than 50 nM, the EC50 [3] was 10 to 50 nM and the IC50 ([4]; wild type RT) was less than 50 nM. For the same compound, the EC50 [2] was 10 to 50 nM.
Compound `CCN1c2ncc(CCOc3ccc(-c4ccc(CC(=O)O)c(F)c4)cc3C)cc2C(=O)N(C)c2cccnc21` has an IC50 [1] of less than 50 nM, an EC50 [3] of less than 10 nM and an EC50 [2] of less than 10 nM.
`CCN1c2ncc(CCOc3ccc(-c4ccc(C(=O)O)cn4)cc3C)cc2C(=O)N(C)c2cccnc21` was tested, and the IC50 [1] was less than 50 nM, the IC50 ([4]; wild type RT) was less than 50 nM and the EC50 [2] was 10 to 50 nM.
`CCN1c2ncc(CCOc3ccc(-c4cc(OC)c(O)c(C(=O)O)c4)cc3C)cc2C(=O)N(C)c2cccnc21` showed an IC50 [1] of less than 50 nM, an IC50 ([4]; wild type RT) of less than 50 nM and an EC50 [2] greater than 50 nM.
In the case of `CCN1c2ncc(CCOc3ccc(-c4ccc(C(=O)O)nc4)cc3C)cc2C(=O)N(C)c2cccnc21`, the IC50 [1] is reported as less than 50 nM, the EC50 [3] is reported as less than 10 nM and the EC50 [2] is reported as less than 10 nM.
With `CCN1c2ncc(CCOc3ccc(-n4nc(C(=O)O)cc4C)cc3C)cc2C(=O)N(C)c2cccnc21` the IC50 [1] was greater than 100 nM, the EC50 [3] was 10 to 50 nM and the IC50 ([4]; wild type RT) was less than 50 nM. For the same compound, the EC50 [2] was greater than 50 nM.
Work on `CCN1c2ncc(CCOc3ccc(-c4cncc(C(=O)O)c4)cc3C)cc2C(=O)N(C)c2cccnc21` yielded an IC50 [1] of less than 50 nM.
`Cc1cc(-c2ccc[n+]([O-])c2)ccc1OCCc1cnc2c(c1)C(=O)Nc1c(C)ccnc1N2C1CC1` showed an IC50 [1] of 50 to 100 nM, an EC50 [3] of less than 10 nM and an EC50 [2] of 10 to 50 nM.

Where two headings read alike, the source gives them in different places.
